Taken from: PubChem BioAssay AID504761 (Drosophila RNAi Screening Center, 2011)

- Assay: 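Genome-wide fly cell screen for genes dengue virus requires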 (primary screen)
- Cells: D.Mel-2 cells from Drosophila
- Reagents: long dsRNA against Drosophila genes
- Challenge: infection with dengue virus type 2; dose and infection time not stated
- Detection: 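Per well on two replicate plates, imaging gave the percent of cells positive for viral envelope protein, ranked by infection, and a nuclear count of cells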
- Scale: infection score: higher = more virus-infected cells
- Active means: 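Low infection ranks in the two replicates (chance level up to 0.065) followed by a retest with a 1.5-fold or larger significant decrease, p below 0.05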
- Meaning of the calls: active = confirmed: knock-down lowers infection; inactive = not picked or not confirmed
The deposit covers about 22,000 reagents; below is a random part of those that have a named target and a result. Over the whole deposit, 116 (0.52%) were called active. 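Calls depend on retest data that are not deposited; infection was ranked per plate without normalising between plates; the unit of the infection score is not given.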 A number with no mark means an inactive call. Not all columns of the deposit are shown. The record does not give: the amount of reagent, the time to read-out.

infection score, replicate 1, by target gene and reagent
hgo (homogentisate 1,2-dioxygenase): DRSC03544 15.9
CG12288: DRSC02155 7.96
Taf1 (TBP-associated factor 1): DRSC12607 45.1; DRSC29806 55.2
fray (frayed): DRSC16950 16.7
cindr (CIN85 and CD2AP related): DRSC14126 6.77
CG15226 (retired record): DRSC03829 4.84; DRSC04233 7.2
spz5 (spatzle 5): DRSC08645 22.5

In a second layout: results already given.
{"target gene":"Taf1 (TBP-associated factor 1)","DRSC id":"DRSC12607","infection score, replicate 1":45.1}
{"target gene":"Taf1 (TBP-associated factor 1)","DRSC id":"DRSC29806","infection score, replicate 1":55.2}

Next entries follow:
infection score, replicate 1, by target gene and reagent
RhoGEF3 (retired record): DRSC08266 0.87; DRSC08353 4.82
CG14879: DRSC15003 1.06; DRSC28083 27.5
drosha: DRSC07607 11.1
Tfb4 (Transcription factor B4): DRSC00675 3.22; DRSC26946 14.7
Diedel: DRSC14317 4.28; DRSC27523 4.4
qless: DRSC15103 7.62; DRSC15507 9.48
sei (seizure): DRSC04713 17.5; DRSC29359 11.3
Non2 (Novel nucleolar protein 2): DRSC08272 18.2; DRSC25342 4.72
